Experimental data as given in PubChem BioAssay AID1637 (Sanford-Burnham Center for Chemical Genomics, 2009).
The list shows a part of the results, in another mix than the full data. Activity calls are given as the source filed them. The rule behind the calls is not given here.

Assay: NMR binding screen, influenza A RNA promoter, Kd (AID 1637)
Conditions: NMR binding to influenza A RNA promoter

Q: For `Cc1c2non([O-])c-2c(C)[n+](=O)[n+]1[O-]`, which Kd is on record?
A: inactive: > 4 mM
